Values from PubChem BioAssay AID1259414 (Drosophila RNAi Screening Center, 2018)
The screen tested about 24,000 reagents; this is a random part of those with a known target gene and a result. In the full data, about 1,210 (5%) got an active call. 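Inactive calls also include excluded dsRNAs with several or no targets, genes unexpressed in JW18, and well A1, regardless of score.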 Unmarked entries are inactive.

Assay: 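Genome-wide screen for host control of endosymbiont load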 (primary screen)
Cell system: Drosophila JW18 cells infected with Wolbachia
Knock-down reagent: long dsRNA against Drosophila genes, 0.25 µg dsRNA per well of a 384-well plate
Time to read-out: 5 days
Treatment: cells persistently infected with Wolbachia before knock-down; no added drug
Measured: 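Imaged fluorescence in situ signal for Wolbachia 23S rRNA per DAPI-counted host cell, given as a robust z-score within each plate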
Scale: Wolbachia per cell robust z: higher = more Wolbachia per host cell than the plate typical
Call rule: 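Hit when robust z is 1.5 or more, or -1.5 or less, in at least two of three replicates; excludes dsRNAs with several or no targets, genes not expressed in JW18 and well A1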

The opening 4 entries, ahead of the listing:
Gene	DRSC id	Wolbachia per cell robust z, rep 1	Wolbachia per cell robust z, rep 2	Wolbachia per cell robust z, rep 3
Hrb27C	DRSC03347	1.88 (active)	2.57	2.06
Hrb27C	DRSC28323	1.31	1.69	1.13
Got1	DRSC07177	-1.03	0.861	0.117
Got1	DRSC26159	-0.468	-0.522	-0.612

Results, repeating the preview:
Gene	DRSC id	Wolbachia per cell robust z, rep 1	Wolbachia per cell robust z, rep 2	Wolbachia per cell robust z, rep 3
Hrb27C	DRSC03347	1.88 (active)	2.57	2.06
Hrb27C	DRSC28323	1.31	1.69	1.13
Got1	DRSC07177	-1.03	0.861	0.117
Got1	DRSC26159	-0.468	-0.522	-0.612
CG9436	DRSC05005	0.276	-0.576	0.674
Cyp4d2	DRSC18458	0.48	-0.923	0.345
CG10799	DRSC06002	-1.55	-0.683	0.431
Pits	DRSC19385	0.396	-1.23	0.775
Pits	DRSC25013	-0.786	0.213	-0.944
CG32855	DRSC13131	-1.37	-0.0799	-8.15
Parp16	DRSC06597	-0.476	-0.559	0.647
Parp16	DRSC27048	-4.6	0.443	-10.9
Miga	DRSC17821	-5.1	-0.389	0.855
CG9953	DRSC11106	-1.69	-0.113	-0.519
CG14074	DRSC10079	0.459	-0.795	0.103
CG14074	DRSC29481	-1.36	-0.548	-0.669
TwdlQ	DRSC23107	-1.68	-4.46	-3.31
TwdlQ	DRSC27737	1.46	0.215	0.97
Idi	DRSC15918	-0.651	-8.71	0.376
RtcB	DRSC03280	-0.27	-0.17	0.267
Coq7	DRSC29047	-2.22 (active)	-0.594	-6.86
tou	DRSC22710	-0.0372	-1.23	-0.0382
tou	DRSC27228	0.25	-0.674	-0.0788
tou	DRSC40748	0.0592	-0.0925	-0.277
Vsx1	DRSC23004	0.349	-0.044	1.1
Vsx1	DRSC25808	-1.96	1.1	-0.511
TfIIFbeta	DRSC16884	-1.88	0.911	0.857
TfIIFbeta	DRSC21447	0.531	0.659	0.68
TfIIFbeta	DRSC29742	0.0799	-0.708	0.763
Fkbp12	DRSC07425	0.679 (active)	-3.69	-2.34
Ak1	DRSC10248	-0.5	-0.874	-0.81
Ak1	DRSC29837	-0.0124	0.231	0.529
Ak1	DRSC41563	1.23 (active)	-1.93	-1.84
CG3123	DRSC38928	0.657	-5.68	0.548
IntS2	DRSC20094	-0.326	1.35	2.62
Hcs	DRSC12070	-3	-0.864	-1.23
Hcs	DRSC12256	-4.98	0.979	0.807
CG11970	DRSC14157	-0.769	-0.446	-4.46
S-Lap8	DRSC06870	-0.536	-0.727	-1.31
S-Lap8	DRSC21372	0.0398	-0.353	-1.21
S-Lap8	DRSC29560	0.677	1.39	1.19
CG15879	DRSC08487	1.34	0.103	0.363
CG15879	DRSC27002	0.547	0.685	-0.4
Dph4	DRSC12318	-4.87	-1.03	0.308
IleRS	DRSC11667	-1.78	-0.444	-0.883
PHDP	DRSC04635	-1.66	-0.269	-0.311
